US9023808B2

The chains behind the UniProt entries cited, without tags or fusion partners. Residues count along the entry.
UniProt P27958, 1027-1657 limits assumed: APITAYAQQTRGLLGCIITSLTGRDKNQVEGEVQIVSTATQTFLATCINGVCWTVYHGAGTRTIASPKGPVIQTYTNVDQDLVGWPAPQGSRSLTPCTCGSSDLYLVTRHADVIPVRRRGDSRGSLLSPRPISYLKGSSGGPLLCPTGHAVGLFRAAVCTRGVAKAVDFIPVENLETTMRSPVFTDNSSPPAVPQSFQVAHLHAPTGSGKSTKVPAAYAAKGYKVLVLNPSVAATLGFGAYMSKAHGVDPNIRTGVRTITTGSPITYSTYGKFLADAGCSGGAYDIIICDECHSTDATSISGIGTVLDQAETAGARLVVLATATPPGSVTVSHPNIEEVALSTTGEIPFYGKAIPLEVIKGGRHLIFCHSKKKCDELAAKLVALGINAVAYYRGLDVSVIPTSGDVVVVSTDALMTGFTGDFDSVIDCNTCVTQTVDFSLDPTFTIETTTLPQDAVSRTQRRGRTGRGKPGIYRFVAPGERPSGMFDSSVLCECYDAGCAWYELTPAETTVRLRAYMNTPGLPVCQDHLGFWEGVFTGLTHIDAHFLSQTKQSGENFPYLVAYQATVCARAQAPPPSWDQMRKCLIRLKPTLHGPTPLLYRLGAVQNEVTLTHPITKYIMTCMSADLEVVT

Columns and labels:
[1] = molecular target: HCV NS3/4A protease complexes (full-length hepatitis C NS3 protease enzyme with NS4A cofactor) (Hepatitis C virus genotype 1a, UniProt P27958); assay: Inhibition assay (enzymatic assay, depsipeptide substrate hydrolysis); settings: read-out: Ki (nM) Enzymatic assay; enzyme 1 nM, 25 μM NS4A cofactor, 0.5 μM substrate, 30° C., competitive inhibition model, Km 0.15 μM
[2] = tested on: HCV replicons (NS3-NS5B regions of HCV type 1b) in Huh-7 luc/neo (Huh-Luc) cells; assay: Replicon assay (HCV RNA replication, luciferase readout); settings: read-out: EC50 (μM) Replicon assay, incubation of three days, luciferase activity

Row | SMILES | Ki [1] | EC50 [2]
1 | CN1CCCC/C=C\[C@@H]2C[C@@]2(C(=O)NS(=O)(=O)C2CC2)NC(=O)[C@@H]2C[C@@H](OC(=O)N3CCOc4ccccc43)C[C@H]2C1=O | 12 nM | > 10 µM
2 | CN1CCCC/C=C\[C@@H]2C[C@@]2(C(=O)NS(=O)(=O)C2CC2)NC(=O)[C@@H]2C[C@@H](OC(=O)N3CCCc4ccccc43)C[C@H]2C1=O | 62 nM | > 10 µM
3 | CN1CCCC/C=C\[C@@H]2C[C@@]2(C(=O)NS(=O)(=O)C2CC2)NC(=O)[C@@H]2C[C@@H](OC(=O)N3Cc4ccccc4C3)C[C@H]2C1=O | 5.1 nM | 0.809 µM
4 | CN1CCCC/C=C\[C@@H]2C[C@@]2(C(=O)NS(=O)(=O)C2CC2)NC(=O)[C@@H]2C[C@@H](OC(=O)N3CCc4ccccc4C3)C[C@H]2C1=O | 24 nM | > 10 µM
